Source: PMC8231113, “Protein Secondary Structure Affects Glycan Clustering in Native Mass Spectrometry” (Life, 2021)

Tested on: superfolder green fluorescent protein (GFP)
Assay: Native MS glycan clustering to reference protein GFP
Type: binding
Settings: on GFP

## CC(=O)N[C@H]1[C@H](O[C@H]2[C@@H](O)[C@@H](CO)O[C@H](O[C@@H]3[C@H](O)[C@@H](O)[C@H](O[C@H]4[C@H](O)[C@@H](O)C(O)O[C@@H]4CO)O[C@@H]3CO)[C@@H]2O)O[C@H](CO)[C@H](O)[C@@H]1O (stereo partly drawn) [Gb4, GalNAc β1-3 Galα1-4Galβ1-4Glc]
100 µM glycan
  Glycan-Clustering Ratio R: 0.27±0.02
200 µM glycan
  Glycan-Clustering Ratio R: 0.32±0.07
300 µM glycan
  Glycan-Clustering Ratio R: 0.53±0.01
400 µM glycan
  Glycan-Clustering Ratio R: 0.69±0.04
500 µM glycan
  Glycan-Clustering Ratio R: 0.80 ± 0.03

## CC(=O)N[C@H]1[C@@H](O[C@H]2[C@@H](O)[C@@H](CO)O[C@@H](O[C@H]3[C@H](O)[C@@H](CO)OC(O)[C@@H]3NC(C)=O)[C@@H]2O[C@@H]2O[C@@H](C)[C@@H](O)[C@@H](O)[C@@H]2O)O[C@H](CO)[C@H](O)[C@@H]1O (stereo partly drawn) [HBGA A, GalNAcα1-3(Fucα-2)Galβ1-3GlcNAc]
100 µM glycan
  Glycan-Clustering Ratio R: 0.30±0.02
200 µM glycan
  Glycan-Clustering Ratio R: 0.35± 0.05
300 µM glycan
  Glycan-Clustering Ratio R: 0.54± 0.01
400 µM glycan
  Glycan-Clustering Ratio R: 0.68± 0.04
500 µM glycan
  Glycan-Clustering Ratio R: 0.86 ± 0.04

## CC(=O)N[C@H]1C(O)O[C@H](CO)[C@@H](O)[C@@H]1O[C@@H]1O[C@H](CO)[C@H](O)[C@H](O[C@H]2O[C@H](CO)[C@H](O)[C@H](O)[C@H]2O)[C@H]1O[C@@H]1O[C@@H](C)[C@@H](O)[C@@H](O)[C@@H]1O (stereo partly drawn) [HBGA B, Galα1-3(Fucα1-2)Galβ1-3GlcNAc]
100 µM glycan
  Glycan-Clustering Ratio R: 0.30±0.02
200 µM glycan
  Glycan-Clustering Ratio R: 0.41±0.02
300 µM glycan
  Glycan-Clustering Ratio R: 0.44±0.04
400 µM glycan
  Glycan-Clustering Ratio R: 0.57±0.01
500 µM glycan
  Glycan-Clustering Ratio R: 0.67 ± 0.02
